Results of unrelated studies side by side (data: NIAID ChemDB).

Common to all: enzyme or target tests

ICn: concentration for n% inhibition. Rows are shuffled and stem from different studies. An empty or dashed field is not shown. Percent inhibition refers to the dose given; in toxicity tests it is the harm to the cells.

compound	measure	species	dose	strain or isolate	target	result
Nc1nc(N)c2nc(CN3c4ccccc4Cc4ccccc43)cnc2n1	IC50	Cryptosporidium parvum		TYPE 2	Dihydrofolate reductase	1.7 µM
O=C(Nc1nnc(NCCCn2ccnc2)s1)c1ccc(Cl)c(Cl)c1	IC50	Human cytomegalovirus			Polymerase	>25 µM
O=C(O)c1ccc(N2C(=O)C(=Cc3ccc(-c4cc(C(F)(F)F)ccc4Cl)o3)SC2=S)cc1Cl	IC50	Bovine viral diarrhea virus			NS5 polymerase	≤1 µM
Nc1nc(N)c2c(n1)CCC(Cc1ccsc1)C2	IC50	Cryptosporidium parvum		TYPE 2	Dihydrofolate reductase	1 µM
O=C(O)CCN1C(=O)C(=Cc2ccc(-c3cc4ccccc4s3)o2)SC1=S	IC50	Bovine viral diarrhea virus			NS5 polymerase	≤1 µM
Cc1cc(C)cc(-c2cncc(N3CCN(c4cccc(C)c4)C(C)C3)n2)c1	inhibition	Cytomegalovirus	10 µM		UL97 kinase	>15%
Nc1nc(N)c2c(CNc3cc(Cl)c(-n4cccc4)c(Cl)c3)csc2n1	IC50	Cryptosporidium parvum		TYPE 2	Dihydrofolate reductase	>10 µM
Fc1cccc(C2CN(c3ccccn3)CCN2c2cnccn2)c1	inhibition	Cytomegalovirus	10 µM		UL97 kinase	>15%
O=C(/C=C/c1ccccc1Cl)Nc1nnc(NCCCCc2ccccc2)s1	IC50	Human cytomegalovirus			Polymerase	>25 µM
COc1cc(NCc2cccc3nc(N)nc(N)c23)cc(OC)c1OC	IC50	Cryptosporidium parvum		TYPE 1	Dihydrofolate reductase	>10 µM
O=C(Nc1nnc(NCCNc2ccccc2)s1)c1ccc(I)cc1	IC50	Human cytomegalovirus			Polymerase	>25 µM
COc1ccc(-c2cncc(N3CCN(c4ccc(C)cc4C)CC3)n2)cc1OC	IC50	Cytomegalovirus			UL97 kinase	<100 µM
Nc1nc(N)c2nc(Cc3ccc(Cl)cc3)c(Cc3ccc(Cl)cc3)nc2n1	IC50	Cryptosporidium parvum		TYPE 1	Dihydrofolate reductase	1.2 µM
O=C(O)CCN1C(=O)C(=Cc2ccc(-c3ccc4c(c3)OCO4)o2)SC1=S	IC50	Bovine viral diarrhea virus			NS5 polymerase	≤1 µM
COc1ccc(OC)c(-c2sc3nc(N)nc(N)c3c2C)c1	IC50	Cryptosporidium parvum		TYPE 1	Dihydrofolate reductase	2.6 µM
COc1ccccc1N1CCN(c2cncc(-c3ccc(SC)cc3)n2)CC1	inhibition	Cytomegalovirus	1 µM		UL97 kinase	<50%
COc1ccc(OC)c(Cc2sc3nc(N)nc(N)c3c2C)c1	IC50	Cryptosporidium parvum		TYPE 2	Dihydrofolate reductase	8.4 µM
O=C(Nc1nnc(NCc2cccc3ccccc23)s1)c1cc(F)cc(F)c1	IC50	Human cytomegalovirus			Polymerase	>25 µM
O=C(O)c1ccc(N2C(=O)C(=Cc3ccc(-c4ncc(C(F)(F)F)cc4Cl)o3)SC2=S)cc1	IC50	Bovine viral diarrhea virus			NS5 polymerase	≤1 µM
CCOc1ccccc1-c1cncc(N2CCN(c3ccc(C(C)=O)cc3)CC2)n1	IC50	Cytomegalovirus			UL97 kinase	<100 µM
Cc1ccc(C(=O)Nc2nnc(NCCc3ccccc3)s2)cc1	IC50	Human cytomegalovirus			Polymerase	>25 µM

Repeating the first 2 entries:

compound | measure | species | dose | strain or isolate | target | result
Nc1nc(N)c2nc(CN3c4ccccc4Cc4ccccc43)cnc2n1 | IC50 | Cryptosporidium parvum |  | TYPE 2 | Dihydrofolate reductase | 1.7 µM
O=C(Nc1nnc(NCCCn2ccnc2)s1)c1ccc(Cl)c(Cl)c1 | IC50 | Human cytomegalovirus |  |  | Polymerase | >25 µM